Consider eight compounds from PMC10525585, “Evaluation of the Antibacterial Effect of Aurone-Derived Triazoles on Staphylococcus aureus” (Antibiotics, 2023).

Structures are written as SMILES.

For the data set, the system named is HepG2 (ATCC HB-8065) cells. Kind of data set: Cytotoxicity assay (PrestoBlue). It counts as cell-based, Human. As to conditions: Table S1; CC50:IC50, HepG2 cells to either MSSA or MRSA (best ratio).
Regarding `N#Cc1ccc(-c2n[nH]nc2C(=O)c2ccccc2O)cc1` [AT100], the SI stood at 1.82.

For `O=C(c1ccccc1O)c1n[nH]nc1-c1ccc(Br)s1` [AT137], the SI worked out at 12.86. The result for `O=C(c1ccccc1O)c1n[nH]nc1-c1cccc(C(F)(F)F)c1` [AT116] reads 16.01.

For the compound `N#Cc1ccc(-c2n[nH]nc2C(=O)c2ccc(Cl)cc2O)cc1` [AT120], the SI is 9.12. As to `O=C(c1ccccc1O)c1n[nH]nc1-c1ccc(Cl)cc1` [AT106], the SI turned out to be 12.99. As for `N#Cc1ccc(-c2n[nH]nc2C(=O)c2cccc(Br)c2O)cc1` [AT124], the figure is 0.29.

In the case of `O=C(c1ccccc1O)c1n[nH]nc1-c1ccc([N+](=O)[O-])cc1` [AT103], the SI was 0.67. The result for `Cc1ccc(-c2n[nH]nc2C(=O)c2cccc(Cl)c2O)cc1` [AT123] reads 4.71.
